Results reported in article PMC7604311, “Caprine Bactenecins as Promising Tools for Developing New Antimicrobial and Antitumor Drugs” (Frontiers in Cellular and Infection Microbiology, 2020).
Peptide text beside a SMILES is read from it.

Tested on: human PBMC vs K562 and U937
Assay: Selectivity index SIn/t (normal vs tumor cells)

CC[C@H](C)[C@H](NC(=O)[C@H](CCCNC(=N)N)NC(=O)[C@@H](NC(=O)[C@H](Cc1ccccc1)NC(=O)[C@@H]1CCCN1C(=O)[C@@H]1CCCN1C(=O)[C@@H]1CCCN1C(=O)[C@H](Cc1c[nH]cn1)NC(=O)[C@@H](NC(=O)[C@H](CCCNC(=N)N)NC(=O)[C@H](CCCNC(=N)N)NC(=O)[C@H](Cc1ccccc1)NC(=O)[C@@H]1CCCN1C(=O)[C@H](CC(C)C)NC(=O)[C@H](CCCNC(=N)N)NC(=O)[C@H](Cc1ccccc1)NC(=O)[C@@H](N)CCCNC(=N)N)[C@@H](C)CC)C(C)C)C(=O)N[C@@H](Cc1c[nH]cn1)C(=O)N1CCC[C@H]1C(=O)N1CCC[C@H]1C(=O)N1CCC[C@H]1C(=O)N[C@@H](Cc1ccccc1)C(=O)N[C@@H](Cc1ccc(O)cc1)C(=O)N[C@@H](CCCNC(=N)N)C(=O)N[C@@H](CCCNC(=N)N)C(=O)N[C@@H](Cc1ccccc1)C(=O)N[C@@H](CC(C)C)C(=O)O [ChBac3.4-1-COOH (rec)] (H-RFRLPFRRIHPPPFVRIHPPPFYRRFL-OH; N-terminus assumed)
SIn/t IC50PBMC/IC50K562∙IC50U937 (IC50 PBMC over geometric mean of IC50s toward K562 and U937): 3.3
SIn/t ratio to ChBac3.4 (ratio of SIn/t of the peptide to SIn/t of native ChBac3.4-NH2 (square brackets)): 1.9
